Laboratory results reported in US20240255507A1 (SYSMEX, published 2024).

Target: SARS-CoV-2 wild-type RBD (SARS-CoV-2, UniProt P0DTC2 319-541)
Assay: ELISA, antigen coated, binder 1 µg/mL, chemiluminescence

Binder | signal intensity
CV30 (antibody, V domains shown) VH: EVQLVESGGGLIQPGGSLRLSCAASGVIVSSNYMSWVRQAPGKGLEWVSVIYSGGSTYYADSVKGRFTISRDNSKNTLYLQMNSLRAEDTAVYYCARDLDVSGGMDVWGQGTTVTVSS VL: not shown | 1.17e+06
CR3022 (antibody, V domains shown) VH: QMQLVQSGTEVKKPGESLKISCKGSGYGFITYWIGWVRQMPGKGLEWMGIIYPGDSETRYSPSFQGQVTISADKSINTAYLQWSSLKASDTAIYYCAGGSGISTPMDVWGQGTTVTVSS VL: DIQMTQSPSSLSASVGDRVTITCRASQSIYSALNWYQQKPGKAPKLLIYAASALQSGVPSRFSGSGSGTDFTLTISSLQPEDFATYYCQQTDIHPYTFGQGTKVEIKR | 1.24e+06
